Data as given in PubChem BioAssay AID1259414 (Drosophila RNAi Screening Center, 2018).
In all, the deposit lists about 24,000 reagents; shown is a random part of those that have a named target and a result. Of all reagents, about 1,210 (5%) are marked active. 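Inactive calls also include excluded dsRNAs with several or no targets, genes unexpressed in JW18, and well A1, regardless of score.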 Entries without a mark were called inactive. Names joined by + are all predicted targets of the reagent.

Test: 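Fly genes that alter Wolbachia amount inside host cells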 (primary screen)
System: Drosophila JW18 cells infected with Wolbachia
Reagents: long dsRNA against Drosophila genes, 0.25 µg dsRNA per well of a 384-well plate
Duration: 5 days
Challenge: cells persistently infected with Wolbachia before knock-down; no added drug
Measured: 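Imaged fluorescence in situ signal for Wolbachia 23S rRNA per DAPI-counted host cell, given as a robust z-score within each plate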
Scale: Wolbachia per cell robust z: higher = more Wolbachia per host cell than the plate typical
Call rule: 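Active if absolute robust z reaches 1.5 in two or more of three replicates, leaving out multi- or no-target dsRNAs, genes unexpressed in JW18 and A1 wells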

Target gene | dsRNA | Wolbachia per cell robust z, rep 1 | Wolbachia per cell robust z, rep 2 | Wolbachia per cell robust z, rep 3
heph | DRSC14082 | 0.288 | 0.533 | 0.378
heph | DRSC14085 | -0.846 | -0.574 | 0.522
heph | DRSC16783 | -0.417 | 0.295 | 0.287
heph | DRSC39131 | -3.18 (active) | -0.0666 | -0.843
sut4 | DRSC07703 | -1.71 | -1.59 | -3.04
sut4 | DRSC24885 | -5.09 | -0.554 | -0.712
CG14694 | DRSC14917 | -4.18 | 0.111 | 0.988
Dnz1 | DRSC03317 | 1.08 | 0.4 | 0.771
Dnz1 | DRSC24926 | -0.0997 | -1.19 | -0.525
CG18748 | DRSC15385 | -2.36 | 0.294 | 0.831
CG14200 | DRSC19555 | 2.31 (active) | 0.377 | 1.73
CG14200 | DRSC22979 | -0.364 | 0.0559 | -0.375
CG14200 | DRSC25784 | 0.00499 | -0.0839 | -0.696
RabGGTa | DRSC12189 | 0.261 | 0.523 | -1.08
CG15024 | DRSC08478 | 0.607 | 1.16 | 0.836
Wdfy2 | DRSC02822 | 0.696 | -0.00704 | 1.58
Wdfy2 | DRSC29755 | -0.181 | -5.66 | 0.438
CG11593 | DRSC08206 | -0.941 | -0.689 | 0.0247
Rpp14a + CG7950 | DRSC16353 | 0.265 | -0.0936 | 0.821
Rpp14a + CG7950 | DRSC28664 | 0.478 | -1.24 | 1.14
lncRNA:CR42836 | DRSC40537 | -1.53 | -2.2 | -2.25
CG16779 | DRSC15153 | -0.13 | 0.917 | -0.793
shams | DRSC16590 | 1.07 | 0.252 | 0.195
Cby | DRSC14591 | -0.184 | 0.276 | -0.318
DCTN4-p62 | DRSC06101 | -0.165 | -0.0103 | -0.99
DCTN4-p62 | DRSC27900 | 0.707 | 1.07 | -0.758
BomS4 | DRSC22509 | 0.907 | -0.254 | -0.226

3 entries already listed, ordered by “Wolbachia per cell robust z, rep 2”, descending.
Target gene | dsRNA | Wolbachia per cell robust z, rep 1 | Wolbachia per cell robust z, rep 2 | Wolbachia per cell robust z, rep 3
CG15024 | DRSC08478 | 0.607 | 1.16 | 0.836
Wdfy2 | DRSC02822 | 0.696 | -0.00704 | 1.58
Wdfy2 | DRSC29755 | -0.181 | -5.66 | 0.438

The results go on:
Target gene | dsRNA | Wolbachia per cell robust z, rep 1 | Wolbachia per cell robust z, rep 2 | Wolbachia per cell robust z, rep 3
Pex1 | DRSC11358 | 0.948 | -0.279 | -0.507
CG32809 | DRSC18507 | -4.38 (active) | -3.45 | -2.55
CG32809 | DRSC18592 | -0.25 | 0.411 | -1.65
sr | DRSC13284 | -0.91 | -4.24 | -0.151
sr | DRSC25793 | -0.0471 | 0.145 | -0.971
CG15412 | DRSC00427 | 0.586 | -0.856 | -0.418
SPH93 | DRSC02978 | -0.0164 | -0.202 | 0.0634
Sema2a | DRSC07551 | -0.372 (active) | -1.8 | -11.5
Sema2a | DRSC40818 | 0.857 | -2.25 | -0.754
rictor | DRSC20071 | -1.39 | -0.96 | -0.194
CG33337 | DRSC13632 | 0.12 | -0.3 | -0.221
CG33337 | DRSC27000 | -6.06 | 0.986 | -0.647
CG6660 | DRSC16087 | 0.684 | -2.29 | 0.301
CG5708 | DRSC02881 | -1.39 | 0.938 | 0.779
CG31111 | DRSC14649 | 0.0177 | 0.255 | -0.634
Sirt4 | DRSC18290 | -0.217 | 0.495 | -0.614
Sirt4 | DRSC27472 | -4.06 | 1.24 | -1.16
bves | DRSC20520 | 0.928 | 0.715 | 0.0252
bves | DRSC20555 | -1.68 (active) | -3.16 | -1.78
